Anti-infective test results gathered from many reports (values: NIAID ChemDB through PubChem).

Shared fields: whole-cell or culture tests; agent: Mycobacterium tuberculosis

ECn: concentration that inhibits the pathogen or its effect by n%. Rows are shuffled and stem from different studies. A number after MIC or MFC names an inhibition level or a share of isolates. An empty or dashed field is not shown. Inhibition is in % at the dose shown (toxicity tests: loss of growth or viability). MIC bound comes from a single tested concentration.

compound,strain,read by,read-out,dose,result
CC(=O)Nc1ccc(/C=N/NC(=S)Nc2cccc3cccnc23)cc1,H37Rv,BACTEC,inhibition,12.5 µg/mL,4%
CCCCCCCCCC(=O)N[C@H]1[C@H](Oc2c3cc4cc2Oc2ccc(cc2Cl)[C@@H](O[C@@H]2O[C@H](CO)[C@@H](O)[C@H](O)[C@H]2NC(C)=O)[C@@H]2NC(=O)[C@H](NC(=O)[C@@H]4NC(=O)[C@H]4NC(=O)[C@@H](Cc5ccc(c(Cl)c5)O3)NC(=O)[C@H](N)c3ccc(O)c(c3)Oc3cc(O)cc4c3)c3ccc(O)c(c3)-c3c(O[C@H]4O[C@H](CO)[C@@H](O)[C@H](O)[C@@H]4O)cc(O)cc3[C@H](C(=O)O)NC2=O)O[C@H](CO)[C@@H](O)[C@@H]1O,L1908,,MIC,,32 µg/mL
CCCCCc1ccc(Oc2c(F)cccc2Cl)c(O)c1,,,MIC100,,25 µg/mL
COC1OC2COC1(OCc1ccccc1)C1OC(C)(C)OC21,H37Rv,BACTEC,inhibition,12.5 µg/mL,0%
O=C(CSc1nnc(-c2ccccc2O)o1)c1ccccc1,H37Rv,BACTEC,inhibition,6.25 µg/mL,45%
C=C1C(=O)O[C@H]2[C@@H](O)[C@H](C)[C@H]3C=CC(=O)[C@]3(C)[C@H](OC(=O)/C(C)=C/C)[C@@H]12,H37Rv,BACTEC,MIC,,≥12.5 µg/mL
CCCCCc1ccc(Oc2cncnc2N)c(O)c1,,,MIC100,,3.125 µg/mL
C[C@H](c1ccccc1)N1C[C@@]2(ON=C(c3ccccc3)[C@H]2c2ccc(Cl)cc2Cl)C2(ON=C(c3ccccc3)O2)[C@]2(C1)ON=C(c1ccccc1)[C@H]2c1ccc(Cl)cc1Cl,MDR-TB,,MIC,,1.78 µM
COc1ccc(C2c3ccccc3C3(O)CC2CC(=O)O3)cc1,H37Rv,BACTEC,inhibition,12.5 µg/mL,3%
O=C(NC1CONC1=O)c1ccc(F)cc1,13PI,,MIC,,12.5 µg/mL
CCCN1CCN(c2ccc([N+](=O)[O-])c3no[n+]([O-])c23)CC1,H37Rv,resazurin,inhibition,6.25 µg/mL,100%
Cc1ccc(C(=O)Nc2ncn[nH]2)c(O)c1,My 331/88,,MIC,,125 µM
Cc1ccc(-n2c(=S)[nH]c3ccccc3c2=S)cc1,331/81,,MIC,,16 µM
C[C@H](c1ccccc1)N1C/C(=C\c2ccc(Cl)cc2Cl)C(=O)/C(=C/c2ccc(Cl)cc2Cl)C1,H37Rv,,MIC,,6.05 µM
CC[C@]1(C)C[C@@H](OC(=O)CSC(C)(C)CNC(=O)[C@H](N)CC(C)C)[C@]2(C)[C@H](C)CC[C@]3(CC/C(=N\OC)[C@H]32)[C@@H](C)[C@@H]1O,H37Rv,resazurin,MIC100,,5.81 µg/mL
CCCCCc1ccc(Oc2c(F)cccc2C#N)c(O)c1,,,MIC100,,25 µg/mL
CCOC(=O)c1cc(O)cc(=O)n1C1OC(COC(=O)c2ccccc2)C(OC(=O)c2ccccc2)C1OC(=O)c1ccccc1,H37Rv,BACTEC,MIC bound,,>12.5 µg/mL
CO[C@H]1/C=C/O[C@@]2(C)Oc3c(C)c(O)c4c(O)c(c(/C=N/N5CCN(C)CC5)c(O)c4c3C2=O)NC(=O)/C(C)=C\C=C\[C@H](C)[C@H](O)[C@@H](C)[C@@H](O)[C@@H](C)[C@H](OC(C)=O)[C@@H]1C,Harlingen (His526Tyr),,MIC,,>32 µg/mL
Cc1ccc(C(=O)Nc2cnccn2)c(O)c1,My 331/88,,MIC,,16 µM
C[C@@]12CCC3[C@@](CCC4[C@@]3(C)CCC[C@@]4(C)C(=O)NNC(=O)c3ccncc3)(CC1=NNC(=O)c1ccncc1)C2,H37Rv,,MIC,,20 µg/mL
C[C@@H]1O[C@@H](O[C@H]2CC[C@]3(C=O)[C@H]4CC[C@]5(C)[C@@H](C6=CC(=O)OC6)CC[C@]5(O)[C@@H]4CC[C@]3(O)C2)[C@H](O)[C@H](O)[C@H]1O,H37Rv,BACTEC,inhibition,12.5 µg/mL,16%
c1ccc(-c2nnc(SCC3(c4ccccc4)OCCO3)o2)cc1,H37Rv,BACTEC,inhibition,6.25 µg/mL,82%
COc1ccc(C(=O)Nc2nc(C)cs2)c(O)c1,My 331/88,,MIC,,125 µM
O=C(Nc1cccc(C(=O)c2ccccc2)c1)NC12CC3CC(CC(C3)C1)C2,H37Rv,,MIC,,5.7 µg/mL
CC1CC(C)(C)NCCNC(C)CC(C)(C)NCCN1,H37Rv,resazurin,MIC bound,,>6.25 µg/mL
O=C(Nc1cnccn1)c1cc(Cl)ccc1O,My 331/88,,MIC,,62.5 µM
CCOC(=O)c1cn(CC)c2c(ccc3cnccc32)c1=O,H37Rv,BACTEC,MIC bound,,>12.5 µg/mL
Cc1ccccc1Sc1nnc(N2CCN(c3nc(N4CCN(c5ccccc5)CC4)c4ccccc4n3)CC2)o1,H37Rv,agar / visual reading,MIC,,6.25 µg/mL
S=c1[nH]c2ccccc2c(=S)n1-c1ccc(Br)cc1,331/81,,MIC,,32 µM
O=C(Nc1cccc(Oc2ccccc2)c1)NC12CC3CC(CC(C3)C1)C2,H37Rv,,MIC,,3.4 µg/mL
O=C(NNc1cccc([N+](=O)[O-])c1)N1CCN(c2nc(N3CCN(c4ccccc4)CC3)c3ccccc3n2)CC1,H37Rv,BACTEC / fluorescence,inhibition,6.25 µg/mL,0%
COc1ccc2[nH]c3c(C)c4ccncc4c(C)c3c2c1,PAS-R,,MIC,,0.8 µg/mL
S=c1oc2c(Cl)cc(Cl)cc2c(=S)n1-c1cccc(Cl)c1,331/81,,MIC,,8 µM
O=[N+]([O-])c1ccccc1Sc1nnc(N2CCN(c3nc(N4CCN(c5ccccc5)CC4)c4ccccc4n3)CC2)o1,H37Rv,BACTEC / fluorescence,MIC,,>6.25 µg/mL
CCNc1nnc(-c2ccc(NC(=S)Nc3ccccc3)cc2)s1,H37Rv,,inhibition,6.25 µg/mL,6%
COC(=O)C(=O)C(C)C(=O)C(C)c1nc2n(c1O)C(=N)N=N2,H37Rv,resazurin,MIC bound,,>6.25 µg/mL
COc1cc(-c2nnc(SCC3(c4ccc(Br)cc4)OCCO3)o2)cc(OC)c1OC,H37Rv,BACTEC,inhibition,6.25 µg/mL,7%
S=c1[nH]c2ccccc2c(=S)n1-c1ccccc1,331/81,,MIC,,32 µM
CCCCCCCCS(=O)(=O)CC(N)=O,42-1C9383,,MIC,,≤12.5 µg/mL
Cc1ccc(NC(=O)c2c(Cl)c(Cl)c(Cl)c(Cl)c2C(=O)O)cc1Cl,H37Rv,BACTEC,inhibition,12.5 µg/mL,0%
CCCCCc1ccc(Oc2ccccc2[N+](=O)[O-])c(O)c1,,,MIC100,,12.5 µg/mL
S=C(Nc1ccccc1)Nc1ccc(-c2nnc(NC3CCCCC3)s2)cc1,H37Rv,,inhibition,6.25 µg/mL,67%
O=C(NNc1ccccc1[N+](=O)[O-])N1CCN(c2nc(N3CCN(c4ccccc4)CC3)c3ccccc3n2)CC1,H37Rv,BACTEC / fluorescence,inhibition,6.25 µg/mL,0%
S=c1oc2c(Cl)cc(Cl)cc2c(=S)n1-c1ccc(Cl)cc1,331/81,,MIC,,8 µM
CC1C2=C(C(=O)N1Cc1ccccc1)C([C@@H]1O[C@H](COC(=O)c3ccccc3)[C@@H](OC(=O)c3ccccc3)[C@H]1OC(=O)c1ccccc1)C(=O)N(C)C2=O,H37Rv,BACTEC,MIC bound,,>12.5 µg/mL
O=C(Nn1cncn1)c1cc(Br)ccc1O,My 331/88,,MIC,,1000 µM
C[C@H](c1ccccc1)N1C/C(=C/c2ccc(Cl)cc2Cl)[C@]2(ON=C(c3ccc(Cl)cc3)O2)C2(C1)ON=C(c1ccc(Cl)cc1)[C@H]2c1ccc(Cl)cc1Cl,H37Rv,,MIC,,0.95 µM
O=C1CSC(c2c(F)cccc2Cl)N1c1nncs1,H37Rv,BACTEC,inhibition,12.5 µg/mL,5%
COc1ccc(C(=O)CSc2nnc(-c3cc(OC)c(OC)c(OC)c3)o2)cc1OC,H37Rv,BACTEC,inhibition,6.25 µg/mL,31%
Nc1nnc2nc(CC(=O)c3cccc([N+](=O)[O-])c3Cl)c(=O)[nH]n12,H37Rv,BACTEC,MIC bound,,>12.5 µg/mL
C[C@H](c1ccccc1)N1C/C(=C\c2cccc3ccccc23)[C@@]2(ON=C(c3ccccc3)O2)[C@@]2(C1)ON=C(c1ccccc1)[C@@H]2c1cccc2ccccc12,H37Rv,,MIC,,8.7 µM
O=C(NC1CONC1=O)c1cccc(C(F)(F)F)c1,H37Rv,,MIC,,>50 µg/mL
COc1cccc(C(=O)CSc2nnc(-c3cc(OC)c(OC)c(OC)c3)o2)c1,H37Rv,BACTEC,inhibition,6.25 µg/mL,17%
C[C@H](c1ccccc1)N1C[C@@]2(ON=C(c3ccc(Cl)cc3)[C@H]2c2ccccc2Br)C2(ON=C(c3ccc(Cl)cc3)O2)[C@]2(C1)ON=C(c1ccc(Cl)cc1)[C@H]2c1ccccc1Br,H37Rv,,MIC,,3.14 µM
O=[N+]([O-])c1cccc(Sc2nnc(N3CCN(c4nc(N5CCN(c6ccccc6)CC5)c5ccccc5n4)CC3)o2)c1,H37Rv,BACTEC / fluorescence,inhibition,6.25 µg/mL,0%
C[C@H]1COc2c(N3CCN(C)CC3)c(F)cc3c(=O)c(C(=O)O)cn1c23,5R,,MIC,,0.5 µg/mL
Cc1ccc(/C=C2\CN([C@H](C)c3ccccc3)C/C(=C\c3ccc(C)cc3)C2=O)cc1,H37Rv,,MIC,,30.67 µM
Cc1cn([C@H]2C[C@H](N=[N+]=[N-])[C@@H](COC(=O)CN3CCN(c4cc5c(cc4F)c(=O)c(C(=O)O)cn5C4CC4)CC3)O2)c(=O)[nH]c1=O,H37Rv (ATCC 27294),BACTEC,EC50,,99 µg/mL
S=C(Nc1ccccc1)Nc1ccc(-c2nnc(Nc3ccccc3)s2)cc1,H37Rv,,MIC,,>6.25 µg/mL
CCn1cc(C(=O)O)c(=O)c2cc(F)c(N3CCN(C)CC3)cc21,55 isolates (RMP INH-R),,MIC50,,8 µg/mL
Nc1nc(-c2ccccc2)c(Sc2nnc(-c3ccccc3)o2)s1,H37Rv,BACTEC,inhibition,6.25 µg/mL,55%
CN(C)c1c(Cl)c(=O)oc2c1ccc1nc(-c3ccccc3)ncc12,H37Rv,BACTEC,MIC,,≥12.5 µg/mL
C[C@]1(COc2ccc(OC(F)(F)F)cc2)Cn2cc([N+](=O)[O-])nc2O1,H37Rv (INH-resistant),,MIC,,0.39 µg/mL
CC(=O)NC[C@H]1CN(c2ccc(N3CCOCC3)c(F)c2)C(=O)O1,4S,,MIC,,0.5 µg/mL
Cn1ncc2[nH]c(=O)n(OS(=O)(=O)c3ccccc3)c(=O)c21,H37Rv,resazurin,inhibition,6.25 µg/mL,9%
Cc1ccc(NNC(=O)N2CCN(c3nc(N4CCN(c5ccccc5)CC4)c4ccccc4n3)CC2)cc1,H37Rv,BACTEC / fluorescence,inhibition,6.25 µg/mL,0%
C/C(=N\NC(=O)c1ccncc1)c1ccc(F)cc1,,BACTEC,inhibition,0.5 µM,93%
O=C(NC1CONC1=O)c1ccccc1C(F)(F)F,12PI,,MIC,,50 µg/mL
CCSSC(SC)C(N)=O,H37Rv,,MIC,,250 µM
S=C(Nc1ccccc1)Nc1ccc(-c2nnc(NCc3ccccc3)s2)cc1,H37Rv,,MIC,,>6.25 µg/mL
Oc1ccccc1-c1nnc(SCC2(c3ccccc3)OCCO2)o1,H37Rv,BACTEC,inhibition,6.25 µg/mL,55%
Cc1cc2nc3c(=O)[nH]c(=O)nc-3n(CCOC(=O)CCC(=O)O)c2cc1C,H37Rv,BACTEC,MIC bound,,>12.5 µg/mL
Cc1ccccc1NNC(=O)N1CCN(c2nc(N3CCN(c4ccccc4)CC3)c3ccccc3n2)CC1,H37Rv,agar / visual reading,MIC,,200 µg/mL
Cc1cc(NC(=O)c2ccc(Cl)cc2O)no1,My 331/88,,MIC,,8 µM
Cc1ccc(/C=C2/CN([C@H](C)c3ccccc3)CC3(ON=C(c4ccc(Cl)cc4)[C@H]3c3ccc(C)cc3)[C@@]23ON=C(c2ccc(Cl)cc2)O3)cc1,H37Rv,,MIC,,8.75 µM
COc1ccccc1Sc1nnc(N2CCN(c3nc(N4CCN(c5ccccc5)CC4)c4ccccc4n3)CC2)o1,H37Rv,BACTEC / fluorescence,inhibition,6.25 µg/mL,0%
CC(=O)Nc1ccc(S(=O)(=O)NNc2nc(N(C)C)nc(N(C)C)n2)cc1,H37Rv,BACTEC,inhibition,12.5 µg/mL,-14%
C[C@H](c1ccccc1)N1C/C(=C\c2ccccc2Br)[C@@]2(ON=C(c3ccccc3)O2)[C@@]2(C1)ON=C(c1ccccc1)[C@@H]2c1ccccc1Br,H37Rv,,MIC,,8.06 µM